Measured values from several laboratories, pooled; numbers as filed in NIAID ChemDB.

Shared fields: growth or infection tests; species: Hepatitis B virus

ECn is the concentration giving n% inhibition of infection, replication or growth. Lines come from different laboratories, so protocols vary. Two numbers with a dash give a range or band. An empty or dashed field is not shown.

compound | strain or isolate | cell line | read by | endpoint | value
COc1ccc(-n2c(C(=O)NCc3cccnc3)c3n(c2=O)CCN(C(=O)c2ccc(Cl)c(Cl)c2)C3)cc1 |  | HepG2.117 | PCR | EC50 | >5 µM
C/C(=C\CC[C@H](C)c1ccc(C)cc1O)CO |  | 2.2.15 |  | EC50 | >61 µg/mL
Nc1cn(COCCO)c(=O)[nH]c1=O | Mutations L180M M204V | D88 |  | EC50 | 30 µM
O=C(NCc1ccccc1-c1ccccn1)c1c2n(c(=O)n1-c1ccc(OCC(F)(F)F)cc1)CCN(C(=O)c1ccc(Br)c(Cl)c1)C2 |  | HepG2.117 | PCR | EC50 | <0.1 µM
CC(C)=CCC[C@H](C)c1ccc(CO)cc1O |  | 2.2.15 |  | EC50 | >61 µg/mL
O=C1NNC(=O)c2c(ncn2[C@@H]2O[C@H](CO)[C@@H](O)[C@H]2O)N1 |  | 2.2.15 |  | EC10 | 30 µM
O=c1ccn(COCCO)c(=S)[nH]1 | Mutation M204I | B1 |  | EC50 | 30 µM
O=C(NCc1c(F)cccc1F)c1c2n(c(=O)n1-c1ccc(OC3CC3)cc1)CCN(C(=O)c1ccc(Br)c(Cl)c1)C2 |  | HepG2.117 | PCR | EC50 | 0.1–0.5 µM
Clc1ccc2ncnc(Nc3ccc(N4CCOCC4)cc3)c2c1 |  | HUH 9B | replicon | EC50 | 1–5 µM
Cc1ccc([C@@H](C)CCCC(C)CO)c(O)c1 |  | 2.2.15 |  | EC50 | >61 µg/mL
O=c1[nH]c(=O)n([C@H]2O[C@@H](CO)[C@H](O)[C@@H]2O)cc1I |  |  |  | EC50 | >100 µM
COC1OC(CSc2nccc(=O)[nH]2)C(O)C1O |  | HepG2 2.2.15 | ELISA | EC50 | <100 µM
Nc1cn([C@@H]2CC[C@@H](CO)O2)c(=O)[nH]c1=O |  | HepG2 |  | EC50 | >10 µM
O=c1[nH]c(=O)n([C@H]2O[C@@H](CO)[C@H](O)[C@H]2O)cc1/C=C/Br |  |  |  | EC50 | >100 µM
Cc1ccc(CNC(=O)c2ccc3ncnc(Nc4ccc(N5CCOCC5)cc4)c3c2)cc1 |  | HUH 9B | replicon | EC50 | 1–5 µM
COc1cccc(-n2c(C(=O)NCc3ccccc3)c3n(c2=O)CCN(C(=O)c2ccc(Br)c(Cl)c2)C3)c1 |  | HepG2.117 | PCR | EC50 | 0.5–5 µM
COC1OC(Cn2ccc(=O)nc2SC)C(O)C1O |  | HepG2 2.2.15 | ELISA | EC50 | >100 µM
COc1ccc([C@H](C)NC(=O)c2c3n(c(=O)n2-c2ccc(OC(C)C)cc2)CCN(C(=O)c2ccc(Br)c(Cl)c2)C3)c(F)c1 |  | HepG2.117 | PCR | EC50 | 0.1–0.5 µM
CC(C)=CCC[C@H](C)c1ccc(C)c([N+](=O)[O-])c1O |  | 2.2.15 |  | EC50 | >61 µg/mL
Cc1cc(=O)[nH]c(=O)n1COCCO | Mutation M204I | B1 |  | EC50 | 30 µM
CC(C)=CCC[C@H](C)c1ccc(C)cc1O[C@@H]1OC(CO)[C@@H](O)C(O)[C@@H]1O |  | 2.2.15 |  | EC50 | >61 µg/mL
O=C(Nc1ccc(-c2ccc3ncnc(Nc4ccc(N5CCOCC5)cc4)c3c2)cc1)OCc1ccccc1 |  | HUH 9B | replicon | EC50 | <1 µM
Cc1ccc([C@@H](C)CCC(=O)O)c(O)c1 |  | 2.2.15 |  | EC50 | >61 µg/mL
CC1=C(O)C(=O)C=C2C1=CCC1[C@@]2(C)CC[C@@]2(C)[C@@H]3C[C@](C)(C(=O)O)CC[C@]3(C)CC[C@]12C |  | 2.2.15 | hybridisation | EC50 | 0.15 µM
Cc1cc(C)n(-c2nc3c(c(=O)n2-c2ccc(N4CC[C@H](O)C4)nc2)C[C@@H](C)N(C(=O)c2ccc(Br)c(C(F)(F)F)c2)C3)n1 | Genotype D | HepG2.117 | PCR | EC50 | ≤0.05 µM
O=c1[nH]c(=O)n(COCCO)cc1Cl | Mutation M204I | B1 |  | EC50 | 69 µM
Nc1nc(=O)n([C@H]2C[C@H](O)[C@@H](CO)O2)cc1[N+](=O)[O-] |  | HepG2 |  | EC50 | >10 µM
COc1ncc(-c2ccc3ncnc(Nc4ccc(N5CCOCC5)cc4)c3c2)cn1 |  | HUH 9B | replicon | EC50 | <1 µM
CC(C)=CCC[C@H](C)c1ccc(C)cc1O |  | 2.2.15 |  | EC50 | >61 µg/mL
O=c1[nH]c(=O)n([C@H]2CC[C@@H](CO)O2)cc1[N+](=O)[O-] |  | HepG2 |  | EC50 | >10 µM
C/C(=C\CC[C@H](C)c1ccc(CO)cc1O)CO |  | 2.2.15 |  | EC50 | >61 µg/mL
CC(=O)Nc1ccc(-c2ccc3ncnc(Nc4ccc(N5CCOCC5)cc4)c3c2)cc1 |  | HUH 9B | replicon | EC50 | <1 µM
COC1OC(Cn2c(C)cc(=O)nc2SC)C(O)C1O |  | HepG2 2.2.15 | ELISA | EC50 | >100 µM
Cc1cc(C)n(-c2nc3c(c(=O)n2-c2ccc4c(c2)ncn4CC(F)F)C[C@@H](C)N(C(=O)c2ccc(Br)c(C(F)(F)F)c2)C3)n1 | Genotype D | HepG2.117 | PCR | EC50 | ≤0.05 µM
CCOC(=O)c1c(CS(=O)c2ccccc2)n(C)c2cc(Br)c(O)c(Cn3ccnc3C)c12 |  | 2.2.15 |  | EC50 | 22.49 µg/mL
Cc1cc(C)n(-c2nc3c(c(=O)n2-c2ccc(NC(C)C)nc2)C[C@@H](C)N(C(=O)c2ccc(Br)c(C(F)(F)F)c2)C3)n1 | Genotype D | HepG2.117 | PCR | EC50 | ≤0.05 µM
c1nc(Nc2ccc(N3CCOCC3)cc2)c2cc(-c3ccc(C4OCCO4)o3)ccc2n1 |  | HUH 9B | replicon | EC50 | 1–5 µM
COc1ccc([C@H](C)NC(=O)c2c3n(c(=O)n2-c2ccc(OC4CC4)cc2)C[C@H](C)N(C(=O)c2ccc(Br)c(Cl)c2)C3)cc1 |  | HepG2.117 | PCR | EC50 | <0.1 µM
FC(F)(F)c1cc(N2CCOCC2)ccc1Nc1ncnc2ccc(-c3cccs3)cc12 |  | HUH 9B | replicon | EC50 | <1 µM
C[C@@H](NC(=O)c1c2n(c(=O)n1-c1ccc(OC3CC3)cc1)CCN(C(=O)c1ccc(Br)c(Cl)c1)C2)c1ccc(OC(F)F)cc1F |  | HepG2.117 | PCR | EC50 | 0.1–0.5 µM
Cc1cc(C)n(-c2nc3c(c(=O)n2-c2ccc(NC[C@H](C)O)nc2)C[C@@H](C)N(C(=O)c2ccc(Br)c(C(F)(F)F)c2)C3)n1 | Genotype D | HepG2.117 | PCR | EC50 | ≤0.05 µM
CCCc1cc(=O)[nH]c(SCC2OC(OC)C(O)C2O)n1 |  | HepG2 2.2.15 | ELISA | EC50 | <100 µM
Cc1cc(C)n(-c2nc3c(c(=O)n2-c2ccc(O)cc2)C[C@@H](C)N(C(=O)c2ccc(Br)c(C(F)(F)F)c2)C3)n1 | Genotype D | HepG2.117 | PCR | EC50 | ≤0.05 µM
COc1ccc(-n2c(C(=O)NCc3cnccn3)c3n(c2=O)CCN(C(=O)c2ccc(Br)c(Cl)c2)C3)cc1 |  | HepG2.117 | PCR | EC50 | >5 µM
CNc1cnc(-n2c(-n3nc(C)cc3C)nc3c(c2=O)C[C@@H](C)N(C(=O)c2ccc(Br)c(C(F)(F)F)c2)C3)nc1 | Genotype D | HepG2.117 | PCR | EC50 | ≤0.05 µM
O=c1[nH]c(=O)n(COCCO)cc1Br | Mutation M204I | B1 |  | EC50 | 67 µM
Cc1cc(C)n(-c2nc3c(c(=O)n2-c2ccc(N4CCN(C)CC4)nc2)C[C@@H](C)N(C(=O)c2ccc(Br)c(C(F)(F)F)c2)C3)n1 | Genotype D | HepG2.117 | PCR | EC50 | ≤0.05 µM
Nc1cn([C@@H]2C[C@H](O)[C@@H](CO)O2)c(=O)nc1N |  | HepG2 |  | EC50 | >10 µM
Cc1cc(C)n(-c2nc3c(c(=O)n2-c2cc(C)c4c(c2)ncn4C)C[C@@H](C)N(C(=O)c2ccc(Br)c(C(F)(F)F)c2)C3)n1 | Genotype D | HepG2.117 | PCR | EC50 | ≤0.05 µM
O=c1[nH]c(=O)n(COCCO)cc1C(F)(F)F | Mutations L180M M204V | D88 |  | EC50 | 50 µM